Results from patent US20240317834A1, “COMPOSITIONS AND METHODS FOR NEUROLOGICAL DISEASES” (CODA BIOTHERAPEUTICS, published 2024).
Numbering of substitutions follows the chain as printed.

Key:
[1] = molecular target: T1, CODA807 (Y115D, L131E in SEQ ID NO: 33) (human (chimera of human α7-nAChR and …))
T1 chain: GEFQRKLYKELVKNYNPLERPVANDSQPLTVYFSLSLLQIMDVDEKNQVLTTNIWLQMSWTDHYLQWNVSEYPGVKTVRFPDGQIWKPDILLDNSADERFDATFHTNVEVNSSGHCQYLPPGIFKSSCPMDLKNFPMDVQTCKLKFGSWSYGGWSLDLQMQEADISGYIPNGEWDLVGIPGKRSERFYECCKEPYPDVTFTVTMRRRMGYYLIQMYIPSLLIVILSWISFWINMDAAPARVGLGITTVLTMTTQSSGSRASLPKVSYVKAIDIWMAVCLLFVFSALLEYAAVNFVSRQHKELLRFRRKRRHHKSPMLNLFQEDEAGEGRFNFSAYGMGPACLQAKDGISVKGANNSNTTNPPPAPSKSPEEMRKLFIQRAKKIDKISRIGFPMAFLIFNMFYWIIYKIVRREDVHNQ

[2] = molecular target: T2, CODA1027 (R101F, L131D in SEQ ID NO: 33) (human (chimera of human α7-nAChR and …))
T2 chain: T1 chain with R79F, D93Y, E109D

[3] = molecular target: T3, CODA282 (Y115D in SEQ ID NO: 33) (human (chimera of human α7-nAChR and …))
T3 chain: T1 chain with E109L

[4] = molecular target: T4, CODA1045 (R101W, Y210V in SEQ ID NO: 33) (human (chimera of human α7-nAChR and …))
T4 chain: T1 chain with R79W, D93Y, E109L, Y188V

[5] = molecular target: T5, CODA333 (L131S in SEQ ID NO: 33) (human (chimera of human α7-nAChR and …))
T5 chain: T1 chain with D93Y, E109S

[6] = molecular target: T6, CODA335 (L131T in SEQ ID NO: 33) (human (chimera of human α7-nAChR and …))
T6 chain: T1 chain with D93Y, E109T

B1: α-bungarotoxin conjugated to Alexa Fluor 647 (ligand)
chain: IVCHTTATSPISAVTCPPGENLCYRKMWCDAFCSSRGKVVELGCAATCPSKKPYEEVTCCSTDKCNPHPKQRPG
Normalized AB MFI [1]: 1.14 ratio to SEQ ID NO: 33 control | Normalized AB % [2]: 0.5 ratio to SEQ ID NO: 33 control | Normalized AB MFI [2]: 0.68 ratio to SEQ ID NO: 33 control | Normalized AB % [3]: 1.23 ratio to SEQ ID NO: 33 control | Normalized AB MFI [3]: 1.04 ratio to SEQ ID NO: 33 control | Normalized AB % [4]: 0.03 ratio to SEQ ID NO: 33 control | Normalized AB % [5]: 1.28 ratio to SEQ ID NO: 33 control | Normalized AB MFI [5]: 1.2 ratio to SEQ ID NO: 33 control | Normalized AB MFI [6]: 1.32 ratio to SEQ ID NO: 33 control
